PSTVd loop 1 mutant pool in Nicotiana benthamiana

Reference: Wu et al. 2024, doi:10.1371/journal.ppat.1012142.

The pool varies loop 1 of the PSTVd intermediate strain in the pattern CNNNNG; wild type is CCUCGG (5' to 3', with the closing base pair).

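Three N. benthamiana plants were inoculated with the whole mutant pool. Samples came from the inoculated region at 5 days, the leaf margin at 10 and upper systemic leaves at 12.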

Numbers give reads per thousand; 0 = not seen among the reads, higher = more abundant.
Each site shows the three plants.
"Pool" is the share in the plasmid pool used as inoculum, on the same scale.
The inoculated region was read from the minus strand, the other sites from the plus strand.
Samples held 32,791 to 60,834 reads, so the smallest values rest on one or two reads.

| sequence | pool | inoculated region | leaf margin | systemic leaves |
|---|---|---|---|---|
| CUUCCG | 4.43 | 3.12 / 2.51 / 3.25 | 0 / 0 / 0 | 0 / 0 / 0.0329 |
| CUUCGG | 3.99 | 3.17 / 2.96 / 2.77 | 9.29 / 8.20 / 0.122 | 8.02 / 7.15 / 7.50 |
| CUUCUG | 3.39 | 2.80 / 2.76 / 2.54 | 0 / 0 / 0 | 0 / 0 / 0 |
| CUUGAG | 3.53 | 3.04 / 2.21 / 3.27 | 0.0199 / 0 / 0 | 0 / 0 / 0.0164 |
| CUUGCG | 4.14 | 2.90 / 2.59 / 2.72 | 0 / 0 / 3.93 | 0 / 0 / 1.25 |
| CUUGGG | 3.46 | 2.99 / 2.61 / 2.95 | 0 / 0 / 0 | 0 / 0 / 0 |
| CUUGUG | 4.69 | 2.99 / 2.83 / 3.00 | 0.0199 / 0 / 0 | 0 / 0.0180 / 0.0164 |
| CUUUAG | 4.06 | 3.04 / 2.76 / 2.52 | 0 / 0 / 0.0305 | 0 / 0 / 0 |
| CUUUCG | 3.93 | 2.58 / 2.87 / 2.70 | 0 / 0 / 0 | 0 / 0 / 0 |
| CUUUGG | 3.59 | 3.03 / 2.61 / 2.47 | 0.0199 / 0.0211 / 0 | 0 / 0 / 0 |
| CUUUUG | 4.24 | 3.10 / 2.83 / 2.43 | 0 / 0.0211 / 0.0305 | 0 / 0 / 0.0164 |
| GAGUCG | 0.0131 | 0 / 0 / 0 | 0 / 0 / 0 | 0 / 0 / 0 |
| GCGCGG | 0.0131 | 0 / 0 / 0 | 0 / 0 / 0 | 0 / 0 / 0 |
| GCUCGG | 0.407 | 0.793 / 0.656 / 0.875 | 0.279 / 1.31 / 0.183 | 0.934 / 4.62 / 4.45 |
| GCUCGU | 0.0131 | 0 / 0 / 0 | 0 / 0 / 0 | 0.0203 / 0.0180 / 0.0164 |
| GCUGGG | 0.0263 | 0 / 0 / 0.0715 | 0 / 0.0211 / 0 | 0.0203 / 0.0719 / 0.0493 |
| GGGUCG | 0.0131 | 0 / 0 / 0 | 0 / 0 / 0 | 0 / 0 / 0 |
| GGUGUG | 0.0131 | 0 / 0 / 0 | 0 / 0 / 0 | 0 / 0 / 0 |
| GUCUAG | 0.0131 | 0 / 0 / 0 | 0 / 0 / 0 | 0 / 0 / 0 |
| GUGGUG | 0.0131 | 0 / 0 / 0 | 0 / 0 / 0 | 0 / 0 / 0 |
| UCUCGG | 0.0920 | 0.0554 / 0.0750 / 0.0715 | 0.0995 / 0.0423 / 0.0915 | 0.102 / 0.0898 / 0.0329 |
| UGUCCG | 0.0131 | 0 / 0 / 0 | 0 / 0 / 0 | 0 / 0 / 0 |

For reference, wild type rose from 20.1 per thousand in the pool to 197, 219, 222 (inoculated region), 828, 823, 779 (leaf margin) and 914, 907, 857 (systemic leaves).
Sequences that differ at fixed positions probably stem from PCR or sequencing errors, and defective variants can be carried along by functional ones.